## Screening data, single-dose tests

Source: ChEMBL document CHEMBL3988442, “University of Dundee, Small-Polar-MMV Screening Library” (2021).

A: 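Growth of Mycobacterium tuberculosis over 3 days (7H9 medium with glucose and tyloxapol); the read-out is not stated. Concentration: 50 µM. Higher reads as more growth inhibition (inferred: compounds with an IC50 in retests scored well above the rest). Size under these conditions: about 69,000 compounds, about 760 of them at 50% or above in at least one test.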
B: 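Phenotypic screen: M. tuberculosis growth, cholesterol and DPPC medium, 4 days; the read-out is not stated. Compounds at 50 µM. Direction is inferred from retests: higher values go with more growth inhibition. About 69,000 compounds were tested under these conditions; 0.54% (about 370) showed 50% or more at least once.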

Values are the deposited “Percent Effect”, in %.
The controls that fix the scale are not given in the record; negative values are as filed.
This is part of a subset picked to be rich in strong results.
Two or more numbers in one place are separate tests of the same structure; such repeats can differ widely.
A dash means the value is not listed here; it may have been measured.

With O=C(NCCSC1CCCC1)c1cc(C2CC2)on1 the screen gave A: 19.07%. For CC(=O)c1ccc(Nc2nc(N)nc3c2nc(C)n3C)cc1 the result was A: -23.21%; B: -15.75%. Result for COc1cc(C(=O)NCCc2ccc(Cl)cc2)on1 was A: 38.42% and 45.59%; B: 37.2%. Cc1nc(N(C)C)ncc1C(=O)NCCCn1nccc1C1CC1 gave B: -9.453% and -19.34%. OCC1CCN(Cc2cc3c(cc2Br)OCCO3)CC1 read A: 3.724% and 0.01411%; B: 18.83%.

For Cc1cccnc1C(Cc1ccsc1)NCc1cnc(N(C)C)nc1 (stereo not given) the result was A: 3.576%. With Cc1nn(C)c(C)c1C1CCCN1Cc1cccc(OCC(N)=O)c1 (stereo not given) the screen gave A: -16.6%. Result for Nc1nnc(Cn2nnc(-c3ccccc3F)n2)s1 was A: -3.638%. CCc1cnccc1C(=O)Nc1ccc(C(N)=O)nc1 gave A: -18.06%; B: 9.723%. With CC(C)n1ccnc1CN1CCCN(C(=O)CC2C=CCC2)CC1 (stereo not given) the screen gave A: -27.8%; B: -7.486%.

Result for COc1ccc(CN(C(=O)C2CCCO2)c2ccncc2)cc1 (stereo not given) was A: -11.46% and 5.672%; B: 6.537%. For CC(Cn1cccn1)NS(=O)(=O)Cc1ccc(F)cc1 (stereo not given) the result was A: -18.68%. For [H][C@@]12CCN(C[C@@H]1CC)[C@@H](CNCc1ccc(N(C)C)cc1)C2 the result was A: -1.692% and -13.95%; B: -20.98%. O=C(c1cc(C2CC2)[nH]n1)N1CCN(Cc2ccsc2)CC1 read A: 53.94%. With CC(=O)N1CCCC1c1nnc2n1CCCCC2 (stereo not given) the screen gave B: 51.62% and 0.6994%.

With CC(Cn1cccn1)NCc1csc(-c2ccsc2)n1 (stereo not given) the screen gave A: 24.57%. With Cc1cccc(-c2ccc(C(=O)N3CCSCC3)c(=O)[nH]2)c1 the screen gave A: 27% and 73.18%. Cn1c(C2CC2)nc2c1CCN(CCOc1ccc(C#N)cc1)C2 read A: 17.79%. OC(COCc1ccco1)CSc1nnc2ccccn12 (stereo not given) gave A: 8.62%. With CC(C)(NC(=O)c1cnc(-c2ccccc2F)s1)C(N)=O the screen gave A: -19.77% and 3.696%.

Result for OCc1ccc(CN(CCCn2ccnc2)Cc2ccncc2)o1 was A: 6.664%; B: 8.256%. Result for COc1ccc(C(C)Nc2ncnc3c2NC(=O)CN3)cc1 (stereo not given) was A: -10.12%. With COC(=O)c1ccc(C(=O)NCc2ccc(Br)cc2)cn1 the screen gave A: 97.67%; B: 93.55%. COCC(=O)NCc1cnc(C)nc1-c1cn(C)c2ccc(OC)cc12 gave A: 18.19%. CCCn1ccnc1CN1CCCC1c1cccc(-n2ccnc2)n1 (stereo not given) gave A: 18.86%.

With Cc1nc(CN2CCCC(CCc3cccc(C(F)(F)F)c3)C2)co1 (stereo not given) the screen gave A: 50.41%; B: 50.62%. With Cc1nn(C)c2c(=O)n(C)c(NCC3CCCO3)nc12 (stereo not given) the screen gave A: -2.254% and 12.07%. For CNC(=O)C1CN(C(=O)c2cccnc2)CCN(S(C)(=O)=O)C1 (stereo not given) the result was B: 12.42% and 2.344%. With CNc1c(NCc2ccco2)c(=O)c1=O the screen gave A: 14.69%; B: 16.4%. For Cc1cccc(C(=O)N2CCCC(c3noc(C)n3)C2)n1 (stereo not given) the result was A: -1.379%.

Result for CCS(=O)(=O)c1ccc2c(c1)OCCO2 was A: -9.839%.

Repeated from the top, 3 entries:

structure,A,B
O=C(NCCSC1CCCC1)c1cc(C2CC2)on1,19.07%,-
CC(=O)c1ccc(Nc2nc(N)nc3c2nc(C)n3C)cc1,-23.21%,-15.75%
COc1cc(C(=O)NCCc2ccc(Cl)cc2)on1,38.42% and 45.59%,37.2%